# Measurements from US20260109712A1, “RIFAMYCINS FOR NONTUBERCULOUS MYCOBACTERIA” (priority 2022, published 2026).
# Entries after “also recorded” stand apart in the source; their conditions may differ.
# Test system: ArrMab
# Test: LC-MS in vitro ADP-ribosylation assay with recombinant ArrMab
# Settings: incubation with ArrMab and NAD+, 40 minutes
row,Structure (SMILES),ADP-ribosylation by ArrMab
1,CCC(C)C(=O)OC1C(C)C(OC)C=COC2(C)Oc3c(C)c(O)c4c(c3C2=O)C2=NC3(CCN(CC(C)C)CC3)NC2=C(NC(=O)C(C)=CC=CC(C)C(O)C(C)C(O)C1C)C4=O (mixture of isomers) [5k],fully converted; also recorded: failed to block ADP-ribosylation
2,"CO[C@H]1/C=C/O[C@@]2(C)Oc3c(C)c(O)c4c(c3C2=O)C2=NC3(CCN(CC(C)C)CC3)NC2=C(NC(=O)/C(C)=C/C=C/[C@H](C)[C@H](O)[C@@H](C)[C@@H](O)[C@@H](C)[C@H](OC(=O)c2ccccc2)[C@@H]1C)C4=O [5a, 25-O-benzoyl rifabutin]",no ArrMab-catalyzed transformation was observed; also recorded: No ADP-ribosylated adducts were observed
3,CCC(CC)C(=O)O[C@H]1[C@H](C)[C@H](O)[C@H](C)[C@@H](O)[C@@H](C)/C=C/C=C(\C)C(=O)NC2=C3NC4(CCN(CC(C)C)CC4)N=C3c3c(c(O)c(C)c4c3C(=O)[C@@](C)(O/C=C/[C@H](OC)[C@H]1C)O4)C2=O [5l],fully converted; also recorded: failed to block ADP-ribosylation
4,"CO[C@H]1/C=C/O[C@@]2(C)Oc3c(C)c(O)c4c(c3C2=O)C2=NC3(CCN(CC(C)C)CC3)NC2=C(NC(=O)/C(C)=C/C=C/[C@H](C)[C@H](O)[C@@H](C)[C@@H](O)[C@@H](C)[C@H](OC(=O)c2cccnc2)[C@@H]1C)C4=O [5m, 25-O-(3-pyridinecarbonyl)-25-O-desacetyrifabutin]",No ADP-ribosylated adducts were observed
5,"CO[C@H]1/C=C/O[C@@]2(C)Oc3c(C)c(O)c4c(c3C2=O)C2=NC3(CCN(CC(C)C)CC3)NC2=C(NC(=O)/C(C)=C\C=C\[C@H](C)[C@H](O)[C@@H](C)[C@@H](O)[C@@H](C)[C@H](OC(C)=O)[C@@H]1C)C4=O [rifabutin, reference compound]",completely converted; also recorded: fully ADP-ribosylated

# Same assay, conditions: incubation with ArrMab and NAD+, 40 minutes; listed as Rifabutin
row,Structure (SMILES),ADP-ribosylation by ArrMab
1,"CO[C@H]1/C=C/O[C@@]2(C)Oc3c(C)c(O)c4c(c3C2=O)C2=NC3(CCN(CC(C)C)CC3)NC2=C(NC(=O)/C(C)=C\C=C\[C@H](C)[C@H](O)[C@@H](C)[C@@H](O)[C@@H](C)[C@H](OC(C)=O)[C@@H]1C)C4=O [rifabutin, reference compound]",fully converted into the ADP-ribosyl adduct
